For at least one entry, the source does not settle the construct or the ends of the probe. At least one verdict was read from the data and is not stated in words by the source.
Biological target: MucR (Brucella abortus) (UniProt A0A0H3AQN7)
Experiment: EMSA
Conditions: preferred over NS; recombinant protein

**Q.** Does “ATGAAGTTATATTCAATATAAAAGTAGAAT (double strand) [babR30]” bind?
**A.** binds

— publication PMC11662661
